## Genome-wide point mutation profile of HIV-1: non-coding ends

Positions lie in the non-coding 5' end or the 3' LTR of the genome. Changes in the 5' U3 are not copied into viral RNA and those in the 3' R are mostly lost on reverse transcription, so a low index there need not show harm (not discussed in the paper).

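Seven fragments of pNL4-3 were mutated by error-prone PCR, and each virus pool was passaged in CEM T cells. The RC index is the frequency of a change after passage round 2 divided by its frequency in the plasmid library.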

RC index: lower means poorer replication; rough cut-offs are 0.1 (lethal) and 0.2 (tolerated).
Input reads are the counts in the plasmid library.
Nucleotide positions follow pNL4-3.
The authors read an index above 1 as above wild type (1.9% of all changes in the genome).
Since each clone held several changes (about five per kb), neutral changes can read low.

* A468G (region 5' R, input reads 113): 0.854
* G469A (region 5' R, input reads 113): 0.854
* T9446A (region 3' U3, input reads 363): 0.465
* G9510T (region 3' U3, input reads 82): 0.676
* A780G (region 5' U5/leader, input reads 333): 0.215
* T763A (region 5' U5/leader, input reads 171): 0.237
* C9433T (region 3' U3, input reads 186): 0.318
* G785A (region 5' U5/leader, input reads 239): 0.129
* T448A (region 5' U3, input reads 184): 0.787
* G496T (region 5' R, input reads 108): 0.894
* T9431A (region 3' U3, input reads 196): 0.207
* T9518C (region 3' U3, input reads 156): 1.82
* C751T (region 5' U5/leader, input reads 647): 0.194
* G400T (region 5' U3, input reads 208): 0.413
* G744T (region 5' U5/leader, input reads 82): 0.0707
* A251G (region 5' U3, input reads 141): 0.556
* C754A (region 5' U5/leader, input reads 270): 0.344
* T761A (region 5' U5/leader, input reads 296): 0.104
* A301G (region 5' U3, input reads 248): 0.0989
* C492A (region 5' R, input reads 85): 0.568
* A9492C (region 3' U3, input reads 54): 0.575
* C211G (region 5' U3, input reads 36): 0.0947
* A307T (region 5' U3, input reads 242): 0.101
* A781T (region 5' U5/leader, input reads 438): 0.0353
* C9429A (region 3' U3, input reads 73): 0.578
* G9591T (region 3' R, input reads 42): 0.211
* A9543G (region 3' R, input reads 179): 0.124
* C460A (region 5' R, input reads 124): 0.389
* C333T (region 5' U3, input reads 354): 0.139
* G407A (region 5' U3, input reads 459): 0.321
* C309T (region 5' U3, input reads 242): 0.355
* G395T (region 5' U3, input reads 206): 0.179
* A9501G (region 3' U3, input reads 201): 0.0442
* A9471T (region 3' U3, input reads 318): 0.489
* A193T (region 5' U3, input reads 277): 0.0246
* C9522G (region 3' U3, input reads 59): 0.827
* G350A (region 5' U3, input reads 296): 0.290

Extract of 4 entries:

| base | region | input reads | RC |
|---|---|---|---|
| C460A | 5' R | 124 | 0.389 |
| G469A | 5' R | 113 | 0.854 |
| T9518C | 3' U3 | 156 | 1.82 |
| A781T | 5' U5/leader | 438 | 0.0353 |

Values reported by Al-Mawsawi et al. 2014 (doi:10.1186/s12977-014-0124-6).